Compound potency records, mixed from different reports. Data source: NIAID ChemDB in PubChem.

Shared fields: tests on isolated targets; agent: HIV-1; protein: gp120; endpoint: inhibition

Blank or dashed fields: not listed here. Neighbouring rows are from separate reports. Percent inhibition refers to the dose given; in toxicity tests it is the harm to the cells.

O=S(=O)(O)c1ccc(-c2c3nc(c(-c4ccc(S(=O)(=O)O)cc4)c4ccc([nH]4)c(-c4ccc(S(=O)(=O)O)cc4)c4nc(c(-c5ccc(S(=O)(=O)O)cc5)c5ccc2[nH]5)C=C4)C=C3)cc1 ; tested at: 60 µg/mL ; result: 37.7%
C[C@@H]1CN(C(=O)c2ccccc2)CCN1C(=O)C(=O)c1c[nH]c2ccccc12 ; strain or isolate: YU2 ; read by: ELISA ; tested at: 0.1 µM ; result: 65%
CC1=C(CCC(=O)O)c2cc3nc(cc4[nH]c(cc5[nH]c(cc1n2)c(CCC(=O)O)c5C)c(CCC(=O)O)c4C)C(CCC(=O)O)=C3C ; tested at: 60 µg/mL ; result: 19.5%
O=C(O[C@@H]1Cc2c(O)cc(O)cc2O[C@@H]1c1cc(O)c(O)c(O)c1-c1c([C@H]2Oc3cc(O)cc(O)c3C[C@H]2OC(=O)c2cc(O)c(O)c(O)c2)cc(O)c(O)c1O)c1cc(O)c(O)c(O)c1 ; read by: ELISA ; tested at: 20 µM ; result: 1.2%
CCC1=C(C)/C(=C/c2[nH]c(Cc3[nH]c(/C=C4\NC(=O)C(C)=C4CC)c(C)c3CCC(=O)O)c(CCC(=O)O)c2C)NC1=O ; tested at: 60 µg/mL ; result: 0.9%
O=CC1OC(=O)c2cc(O)c(O)c(O)c2Oc2cc3c(c(O)c2O)-c2c(cc(O)c(O)c2O)C(=O)OCC2OC(OC(=O)c4cc(O)c(O)c(O)c4Oc4cc5c(c(O)c4O)-c4c(cc(O)c(O)c4O)C(=O)OC(C(O)COC5=O)C1OC(=O)c1cc(O)c(O)c(O)c1)C(OC(=O)c1cc(O)c(O)c(O)c1)C(OC(=O)c1cc(O)c(O)c(O)c1)C2OC3=O ; read by: binding ; tested at: 3.13 µg/mL ; result: 66.3%
CC1=C(CCC(=O)O)c2cc3[nH]c(cc4[nH]c(cc5nc(cc1n2)C(CCC(=O)O)=C5CC(=O)O)c(CCC(=O)O)c4CC(=O)O)c(CCC(=O)O)c3CC(=O)O ; tested at: 60 µg/mL ; result: 21%
O=CC(O)C(OC(=O)c1cc(O)c(O)c(O)c1)C1OC(=O)c2cc(O)c(O)c(O)c2-c2c(cc(O)c(O)c2O)C(=O)OCC1O ; read by: binding ; tested at: 6.25 µg/mL ; result: 70.5%
NOCc1c(F)cccc1Cl ; read by: ELISA ; tested at: 0.16 µg/mL ; result: 0%
O=C(OC[C@H]1O[C@@H](O)[C@@H]2OC(=O)c3cc(O)c(O)c(O)c3-c3c(cc(O)c(O)c3O)C(=O)O[C@H]2[C@@H]1OC(=O)c1cc(O)c(O)c(O)c1Oc1cc2c(c(O)c1O)-c1c(cc(O)c(O)c1O)C(=O)O[C@@H]1[C@@H](OC2=O)[C@H](OC(=O)c2cc(O)c(O)c(O)c2)O[C@@H]2COC(=O)c3cc(O)c(O)c(O)c3-c3c(cc(O)c(O)c3O)C(=O)O[C@@H]12)c1cc(O)c(OC(=O)c2cc(O)c(O)c(O)c2)c(O)c1 ; read by: binding ; tested at: 1.56 µg/mL ; result: 73.6%
COC(=O)C(=O)N1CCC[C@@H]1C(=O)N[C@H](Cc1ccccc1)C(=O)OCc1ccccc1 ; read by: ELISA ; setting: 1% FBS ; tested at: 500 µM ; result: 27%
CC(C)(CS(=O)(=O)[O-])[NH2+]C(=O)C(CC(F)(OC(F)(F)C(F)(OC(F)(F)C(F)(OC(F)(F)C(F)(F)C(F)(F)F)C(F)(F)F)C(F)(F)F)C(F)(F)F)C(F)(OC(F)(F)C(F)(OC(F)(F)C(F)(OC(F)(F)C(F)(F)C(F)(F)F)C(F)(F)F)C(F)(F)F)C(F)(F)F ; read by: ELISA ; tested at: 4 µg/mL ; result: 72%
CN1C(=O)C(c2cc(Cl)c(O)c(Cl)c2)NC(=O)[C@@H]2NC(=O)C(c3cc(Cl)c(O)c(Cl)c3)NC(=O)[C@H](NC(=O)C(=O)c3cc(Cl)c(O)c(Cl)c3)Cc3c[nH]c4c(cccc34)-c3cc2cc(c3O)Oc2ccc(cc2)CC1C(=O)NC(C(=O)O)c1ccc(O)cc1 ; read by: ELISA ; tested at: 10 µM ; result: 83%
O=S(=O)(O)c1ccc(NS(=O)(=O)c2ccc(-c3ccc(S(=O)(=O)Nc4ccc(S(=O)(=O)O)c5cccc(S(=O)(=O)O)c45)cc3)cc2)c2c(S(=O)(=O)O)cccc12 ; read by: fluorescence ; tested at: 100 µg/mL ; result: 53%
O=C(O[C@@H]1Cc2c(O)cc(O)cc2O[C@@H]1c1cc(O)c(O)c(O)c1)c1cc(O)c(O)c(O)c1 ; read by: ELISA ; tested at: 20 µM ; result: 0.8%
C1=Cc2nc1c(-c1ccccc1)c1ccc([nH]1)c(-c1ccccc1)c1nc(c(-c3ccccc3)c3ccc([nH]3)c2-c2ccccc2)C=C1 ; tested at: 60 µg/mL ; result: 0%

For reference, 2 entries again:

compound | strain or isolate | read by | setting | tested at | result
O=C(OC[C@H]1O[C@@H](O)[C@@H]2OC(=O)c3cc(O)c(O)c(O)c3-c3c(cc(O)c(O)c3O)C(=O)O[C@H]2[C@@H]1OC(=O)c1cc(O)c(O)c(O)c1Oc1cc2c(c(O)c1O)-c1c(cc(O)c(O)c1O)C(=O)O[C@@H]1[C@@H](OC2=O)[C@H](OC(=O)c2cc(O)c(O)c(O)c2)O[C@@H]2COC(=O)c3cc(O)c(O)c(O)c3-c3c(cc(O)c(O)c3O)C(=O)O[C@@H]12)c1cc(O)c(OC(=O)c2cc(O)c(O)c(O)c2)c(O)c1 | - | binding | - | 1.56 µg/mL | 73.6%
CC1=C(CCC(=O)O)c2cc3nc(cc4[nH]c(cc5[nH]c(cc1n2)c(CCC(=O)O)c5C)c(CCC(=O)O)c4C)C(CCC(=O)O)=C3C | - | - | - | 60 µg/mL | 19.5%